Measured values published in ChEMBL document CHEMBL1155806, “Inorganic polyhedral metallacarborane inhibitors of HIV protease: a new approach to overcoming antiviral resistance” (J Med Chem, 2008).

Tests used:
[1] = molecular target: Human immunodeficiency virus type 1 protease (Human immunodeficiency virus 1, UniProt Q72874, D30N/N88D); experiment: Inhibition of HIV1 recombinant protease D30N/N88D mutant expressed in Escherichia coli by spectrophotometric assay
In short: (§1)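 Recombinant PR refolded from inclusion bodies and purified. 8-10 pmol enzyme in 1 mL 0.1 M sodium acetate pH 4.7, 0.3 M NaCl, 4 mM EDTA. Ki obtained by fitting the Williams–Morrison competitive inhibition equation.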

[2] = Ratio of Ki for HIV1 recombinant protease L10I/L24I/L33F/M46L/[…]/L63P/A71V/V82A/I84V mutant to Ki for wild-type HIV1 BH10 protease expressed in Escherichia coli; design: species or system Human immunodeficiency virus 1
[3] = molecular target: Human immunodeficiency virus type 1 protease (Human immunodeficiency virus 1, UniProt Q72874, A71V/I84V/M46I/V82T); experiment: Inhibition of HIV1 recombinant protease M46I/A71V/V82T/I84V mutant expressed in Escherichia coli by spectrophotometric assay; in short: as §1
[4] = molecular target: Human immunodeficiency virus type 1 protease (Human immunodeficiency virus 1, UniProt Q72874, A71V/E35D/G73S/I15V/I62V/L10I/L63P/L90M/N37S/R41K); experiment: Inhibition of HIV1 recombinant protease L10I/I15V/E35D/N37S/R41K/I62V/L63P/A71V/G73S/L90M mutant expressed in Escherichia coli by spectrophotometric assay
[5] = molecular target: Human immunodeficiency virus type 1 protease (Human immunodeficiency virus 1, UniProt Q72874, I47A/V32I); experiment: Inhibition of HIV1 recombinant protease V32I/I47A mutant expressed in Escherichia coli by spectrophotometric assay; in short: as §1
[6] = molecular target: Human immunodeficiency virus type 1 protease (Human immunodeficiency virus 1, UniProt Q72874, A71V/I54V/I84V/L10I/L24I/L33F/L63P/M46L/V82A); experiment: Inhibition of HIV1 recombinant protease L10I/L24I/L33F/M46L/I54V/L63P/A71V/V82A/I84V mutant expressed in Escherichia coli by spectrophotometric assay; in short: as §1
[7] = molecular target: Human immunodeficiency virus type 1 protease (Human immunodeficiency virus 1, UniProt Q72874, A71V/E35D/F53L/H69K/I54V/I84V/I93L/K20R/L10F/L19I/L33F/L63P/L89M/L90M/M36I/R41K/T74P); experiment: Inhibition of HIV1 recombinant protease L10F/L19I/K20R/L33F/E35D/M36I/R41K/F53L/I54V/L63P/H69K/A71V/T74P/I84V/L89M/L90M/I93L mutant expressed in Escherichia coli by spectrophotometric assay; in short: as §1
[8] = molecular target: Human immunodeficiency virus type 1 protease (Human immunodeficiency virus 1, UniProt Q72874, A71V/I84V/V82T); experiment: Inhibition of HIV1 recombinant protease A71V/V82T/I84V mutant expressed in Escherichia coli by spectrophotometric assay; in short: as §1

`Cc1cccc(C)c1OCC(=O)N[C@@H](Cc1ccccc1)[C@@H](O)C[C@H](Cc1ccccc1)NC(=O)[C@H](C(C)C)N1CCCNC1=O` [LOPINAVIR] showed a Ki [1] of 0.026 nM, a Ki ratio [2] of 24 and a Ki [3] of 0.029 nM. It also gave a Ki [4] of 0.029 nM, a Ki [5] of 2.4 nM and a Ki [6] of 0.44 nM. The Ki [7] was 0.5 nM and the Ki [8] was 0.06 nM.
